{"sequences": {"note": "The chains behind the UniProt entries cited, without tags or fusion partners.", "UniProt Q8ZKQ6, whole entry": "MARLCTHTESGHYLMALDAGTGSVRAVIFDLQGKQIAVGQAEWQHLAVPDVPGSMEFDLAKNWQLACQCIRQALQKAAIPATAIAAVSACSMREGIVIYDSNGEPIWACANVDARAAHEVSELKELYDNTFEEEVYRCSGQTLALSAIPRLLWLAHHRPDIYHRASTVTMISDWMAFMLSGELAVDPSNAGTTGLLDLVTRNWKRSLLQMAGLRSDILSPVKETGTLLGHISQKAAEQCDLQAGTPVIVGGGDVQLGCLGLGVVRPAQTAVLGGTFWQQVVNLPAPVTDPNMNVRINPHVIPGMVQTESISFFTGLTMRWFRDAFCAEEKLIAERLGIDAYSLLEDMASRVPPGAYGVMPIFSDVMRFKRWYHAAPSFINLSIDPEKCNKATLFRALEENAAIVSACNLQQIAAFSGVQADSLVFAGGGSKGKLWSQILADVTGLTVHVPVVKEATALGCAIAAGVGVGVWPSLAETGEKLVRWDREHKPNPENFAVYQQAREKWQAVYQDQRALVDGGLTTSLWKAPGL"}, "source": "paper PMC6627609", "about": "“Targeting Quorum Sensing: High-Throughput Screening to Identify Novel LsrK Inhibitors” (International Journal of Molecular Sciences, 2019)", "target": "LsrK (Salmonella typhimurium, UniProt Q8ZKQ6)", "assay": "LsrK inhibition assay (Kinase-Glo Max Luminescent kinase assay)", "type": "biochemical, S. typhimurium", "conditions": "primary screening, 50 µM, tested in singles", "note": "This is a selection: effects in other tests are not listed, and their absence says nothing."}
{"substance": "SODIUM NITROPRUSSIDE", "values": [{"measurement": "Inhibition (%)", "result": 64, "unit": "%"}]}
